Laboratory results published in paper PMC5485444 (Antibiotics, 2017).

Experiment: pH-dependent drug release study from insoluble cyclodextrin polymer disks
Details: pH 5.0 vs pH 7.4, approximately 40 days

CC[C@H]1OC(=O)[C@H](C)[C@@H](OC2C[C@@](C)(OC)[C@@H](O)[C@H](C)O2)[C@H](C)[C@@H](OC2O[C@H](C)C[C@H](N(C)C)[C@H]2O)[C@](C)(O)C[C@@H](C)/C(=N\NC(=O)C23CC4CC(CC(C4)C2)C3)[C@H](C)[C@@H](O)[C@]1(C)O (stereo partly shown) [AD-EM, adamantane-modified erythromycin]
Release profile in acidic vs neutral conditions: slightly increased release profile in acidic conditions compared to neutral conditions
